Measurements reported in PubChem BioAssay AID624099 (ICCB-Longwood, 2012)
This is an unselected part of about 21,000 reagents tested. 497 of all reagents (2.4%) were called active. 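Higher z means weaker E2 silencing; only reporter increases were scored, and knock-downs that hurt cell survival may mask genuine repressor factors.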

- Assay: 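Human genes that papillomavirus E2 requires to repress the HPV18 LCR promoter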 (primary screen)
- Cells: human C33A cervical carcinoma cells (HPV-negative) stably expressing BPV1 E2 and an HPV18 LCR luciferase reporter
- Reagent: siRNA pool against human genes, 40 nM
- Timing: 72 h
- Detection: 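Per-well luciferase luminescence, z-scored on each plate against the plate mean and SD with control wells left out, then averaged across three replicate plates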
- Reading the numbers: mean z-score and z-score: higher = stronger reporter signal, weaker E2 silencing
- Active means: 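Hit if mean z-score reaches 2 and two or more of three replicate z-scores also reach 2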

gene | mean z-score | z-score, replicate A | z-score, replicate B | z-score, replicate C | Outcome
KLRC2 | 0.52 | 0.35 | 0.3 | 0.92 | inactive
LOC387859 (retired record) | 0.5 | 0.52 | 0.62 | 0.35 | inactive
CRNDE | 0.78 | 1.26 | 0.14 | 0.94 | inactive
GBP2 | 0.71 | 0.95 | 0.63 | 0.55 | inactive
EML5 | -0.39 | -0.08 | -0.7 | -0.41 | inactive
CUTC | 0.89 | 1.02 | 1.16 | 0.48 | inactive
SALL1 | -2.11 | -1.93 | -2.17 | -2.23 | inactive
MSTN | -0.6 | -0.47 | -0.59 | -0.72 | inactive
HERC2P8 | -0.43 | -0.09 | -0.42 | -0.78 | inactive
HOXC12 | -0.07 | -0.03 | 0.11 | -0.28 | inactive
STAB1 | -0.94 | -0.68 | -0.95 | -1.2 | inactive
CYP1A1 | -0.26 | -0.17 | -0.41 | -0.19 | inactive
FOSL2 | 2.52 | 2.56 | 2.5 | 2.49 | active
ZNF322P1 | 0.08 | 0.03 | 0.28 | -0.06 | inactive
EVX2 | 0.51 | 0.47 | 0.36 | 0.7 | inactive
SGCE | -1 | -1.32 | -1.11 | -0.58 | inactive
KLHL22 | 0.02 | -0.03 | -0.01 | 0.1 | inactive
MTA3 | -0.74 | -0.56 | -0.73 | -0.93 | inactive
ADGRV1 | -0.32 | -0.15 | -0.71 | -0.1 | inactive
SYNGR4 | 0.68 | 1.25 | 0.31 | 0.48 | inactive
LOC399933 (retired record) | -0.72 | -0.54 | -1.24 | -0.38 | inactive
LOC400092 (retired record) | 0.75 | 1.43 | 0.38 | 0.45 | inactive
CIBAR1 | -0.03 | -0.14 | -0.14 | 0.18 | inactive
METTL5 | -0.33 | -0.6 | -0.62 | 0.23 | inactive
LOC339077 (retired record) | -2.61 | -2.21 | -2.76 | -2.86 | inactive
MSRA | -0.7 | -0.42 | -1.17 | -0.51 | inactive
OGA | -0.66 | -1.08 | -0.46 | -0.45 | inactive
MPHOSPH10P1 | 0.6 | 0.71 | 0.46 | 0.63 | inactive
LINC02878 | -0.51 | 0.09 | -0.58 | -1.04 | inactive
MUC6 | 1 | 1.38 | 0.8 | 0.82 | inactive
FOXA3 | 1.71 | 2.03 | 1.66 | 1.44 | inactive
STPG4 | 0.41 | 0.77 | -0.05 | 0.52 | inactive
LMBR1L | 1.06 | 0.99 | 1.36 | 0.82 | inactive
IGFBP3 | 0.6 | 0.67 | 0.46 | 0.69 | inactive
HTRA4 | -0.67 | -0.89 | -0.8 | -0.34 | inactive
MFAP5 | 0.98 | 1.08 | 1.12 | 0.74 | inactive
LEPROT | -1.38 | -1.29 | -1.38 | -1.48 | inactive
H4C11 | -0.01 | 0.19 | -0.22 | -0.01 | inactive
LIX1L | -0.22 | -0.44 | 0.04 | -0.27 | inactive
